Here are results for one substance from article PMC7253625, “A Telomerase-Derived Peptide Exerts an Anti-Hepatitis B Virus Effect via Mitochondrial DNA Stress-Dependent Type I Interferon Production” (Frontiers in Immunology, 2020).

Chains of the proteins cited; added tags and fusions are not shown. Lines headed by an entry give the natural chain unless they say otherwise; changes in a name come on top.
UniProt O14746: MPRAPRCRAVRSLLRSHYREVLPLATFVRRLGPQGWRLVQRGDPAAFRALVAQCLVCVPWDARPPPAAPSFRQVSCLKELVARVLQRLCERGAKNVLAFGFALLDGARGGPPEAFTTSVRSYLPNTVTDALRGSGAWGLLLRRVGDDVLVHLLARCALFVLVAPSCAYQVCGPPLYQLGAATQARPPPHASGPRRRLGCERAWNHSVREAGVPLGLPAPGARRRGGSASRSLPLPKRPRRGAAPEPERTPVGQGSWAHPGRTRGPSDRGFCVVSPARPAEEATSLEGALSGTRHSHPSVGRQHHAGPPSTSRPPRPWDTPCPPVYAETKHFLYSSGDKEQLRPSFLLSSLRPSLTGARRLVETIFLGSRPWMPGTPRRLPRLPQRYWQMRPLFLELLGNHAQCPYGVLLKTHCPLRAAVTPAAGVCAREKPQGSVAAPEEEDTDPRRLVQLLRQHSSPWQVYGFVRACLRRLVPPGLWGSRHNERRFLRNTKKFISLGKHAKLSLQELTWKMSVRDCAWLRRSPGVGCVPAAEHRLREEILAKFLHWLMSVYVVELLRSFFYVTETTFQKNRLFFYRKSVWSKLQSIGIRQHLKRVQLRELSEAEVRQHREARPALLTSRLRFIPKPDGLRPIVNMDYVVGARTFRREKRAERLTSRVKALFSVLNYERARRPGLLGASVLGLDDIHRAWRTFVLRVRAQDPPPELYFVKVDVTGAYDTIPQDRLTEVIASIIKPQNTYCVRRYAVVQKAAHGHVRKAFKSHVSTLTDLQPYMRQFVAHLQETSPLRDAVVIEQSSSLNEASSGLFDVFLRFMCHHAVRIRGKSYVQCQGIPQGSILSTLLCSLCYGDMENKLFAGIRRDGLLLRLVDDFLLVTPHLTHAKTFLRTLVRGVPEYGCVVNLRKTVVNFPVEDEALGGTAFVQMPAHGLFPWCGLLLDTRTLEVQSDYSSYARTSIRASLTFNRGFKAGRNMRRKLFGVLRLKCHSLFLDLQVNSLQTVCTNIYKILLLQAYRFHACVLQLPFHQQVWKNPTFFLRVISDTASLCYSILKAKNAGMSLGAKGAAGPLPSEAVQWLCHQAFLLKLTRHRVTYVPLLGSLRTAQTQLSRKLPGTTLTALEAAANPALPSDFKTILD

The subject of the data set is HepG2-2.15 cells. Briefly: Confocal microscopy of FITC-labeled peptide (intracellular location). Format: cell-based, human. As to conditions: GV1001-FITC.

With “GV1001-FITC: Fluorescein isothiocyanate (FITC)-labeled GV1001 peptide (EARPALLTSRLRFIPK; FITC label; UniProt O14746 611-626, looked up, fragment)”, the “intracellular location of peptide” value (with Bafilomycin A1 (100 nM)) was “not diffused to the cytosolic space” and the “intracellular location of peptide” value (without Bafilomycin A1) was “diffused or released throughout the cytosolic space”.
